Laboratory results published in publication PMC7696940, “Effects of Rationally Designed Physico-Chemical Variants of the Peptide PuroA on Biocidal Activity towards Bacterial and Mammalian Cells” (International Journal of Molecular Sciences, 2020).

Test system: HeLa cells
Format: cell-based, human
Settings: ratio of IC50 NIH-3T3 to IC50 HeLa; bounds calculated with 250 μg/mL
Method: Cytotoxicity to human cervical carcinoma HeLa cells and mouse fibroblastic NIH-3T3 cells was determined using the MTT assay as per Scudiero et al. with minor modifications. The cells were maintained in Dulbecco’s Modified Eagle Medium (DMEM) with 10% foetal bovine serum (FBS) and 1% penicillin G in a humidified incubator (Heraeus Hera Cell incubator) at 37 °C with 5% CO2. They were seeded in 96-well microtiter plates at 1 × 10^4 cells/well and allowed to adhere for 24 h in the incubator. The medium was removed, and adherent cells were washed with PBS. Fresh media containing serially diluted peptides in PBS (final concentrations 4 to 250 µg/mL) were added and the cells incubated for 24 h. Cells without peptides were used as negative controls. Following incubations, the medium was removed, and adherent cells were washed with PBS. 150 µL of MTT (diluted to 0.33 mg/mL in DMEM) and the plates incubated for 3 h. The precipitated formazan was dissolved in 100 µL of DMSO and its absorbance measured at 570 nm. Cell viability was determined as: (OD570 nm peptide treated cells/(OD570 nm untreated cells) × 100. Positive cytotoxicity was defined as peptide concentration that causes 50% growth inhibition in a cell line (IC50). All tests were carried out in triplicate.

Substance	Therapeutic Index (TI)
RKRWWRWWKWWKR-NH2 [dP1, diastereomeric counterpart of P1]	2
WWRWWKWW-NH2 [dWW, diastereomeric counterpart of WW]	2
